PSTVd loop 6 mutant pool in Nicotiana benthamiana

PSTVd intermediate strain, loop 6: wild type UGACCGCGAG, pool pattern UNNNCGNNNG; upper and lower strand joined, each 5' to 3', the first 5 letters being the upper strand, closing pairs included.

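A pool of all variants was put on leaves of three Nicotiana benthamiana plants. Progeny were sequenced from the inoculated region (day 5), the margin of the inoculated leaf (day 10) and systemic leaves (day 12).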

Values are reads per thousand in the sample; higher means more abundant, 0 means not found. Each site shows the three plants. "Pool" is the share in the plasmid pool used as inoculum, on the same scale. The inoculated region was read from the minus strand, the other sites from the plus strand. IR is the inoculated region, LM the leaf margin, Sys the systemic leaves. For reference, wild type rose from 20.7 per thousand in the pool to 195, 198, 203 (inoculated region), 629, 591, 734 (leaf margin) and 942, 870, 868 (systemic leaves).

{"sequence": "UGCCCGGGUG", "pool": "0.209", "IR": "0.0869 / 0.0539 / 0.0738", "LM": "0 / 0 / 0", "Sys": "0 / 0 / 0"}
{"sequence": "UGCCCGGUAG", "pool": "0.248", "IR": "0.0869 / 0.0898 / 0.184", "LM": "0 / 0 / 0.0232", "Sys": "0 / 0 / 0"}
{"sequence": "UGCCCGGUCG", "pool": "0.222", "IR": "0.0174 / 0.108 / 0.0553", "LM": "0 / 0 / 0.0232", "Sys": "0 / 0 / 0"}
{"sequence": "UGCCCGGUGG", "pool": "0.157", "IR": "0.174 / 0.0359 / 0.111", "LM": "0 / 0.0252 / 0", "Sys": "0 / 0 / 0"}
{"sequence": "UGCCCGGUUG", "pool": "0.327", "IR": "0.191 / 0 / 0.0738", "LM": "0 / 0.0252 / 0", "Sys": "0 / 0 / 0"}
{"sequence": "UGCCCGUAAG", "pool": "0.131", "IR": "0.712 / 0.701 / 0.516", "LM": "0.0276 / 0.151 / 0.0464", "Sys": "0 / 0 / 0"}
{"sequence": "UGCCCGUACG", "pool": "0.275", "IR": "0.0521 / 0.0180 / 0.0922", "LM": "0.0276 / 0 / 0.0232", "Sys": "0 / 0 / 0"}
{"sequence": "UGCCCGUAGG", "pool": "0.209", "IR": "0.243 / 0.0719 / 0.0922", "LM": "0 / 0 / 0.0232", "Sys": "0 / 0 / 0"}
{"sequence": "UGCCCGUAUG", "pool": "0.261", "IR": "0.0869 / 0.162 / 0.111", "LM": "0.304 / 0 / 0", "Sys": "0 / 0 / 0"}
{"sequence": "UGCCCGUCAG", "pool": "0.275", "IR": "0.209 / 0.144 / 0.0738", "LM": "0.0276 / 0 / 0.0232", "Sys": "0 / 0 / 0"}
{"sequence": "UGCCCGUCCG", "pool": "0.196", "IR": "0.104 / 0.126 / 0.0922", "LM": "0 / 0 / 0.0464", "Sys": "0 / 0 / 0"}
{"sequence": "UGCCCGUCGG", "pool": "0.196", "IR": "0.139 / 0.0719 / 0.111", "LM": "0 / 0 / 0.0232", "Sys": "0 / 0 / 0"}
{"sequence": "UGCCCGUCUG", "pool": "0.183", "IR": "0.0869 / 0.126 / 0.0369", "LM": "0 / 0 / 0", "Sys": "0 / 0 / 0"}
{"sequence": "UGCCCGUGAG", "pool": "0.183", "IR": "0.139 / 0.144 / 0.129", "LM": "0 / 0 / 0", "Sys": "0 / 0 / 0"}
{"sequence": "UGCCCGUGCG", "pool": "0.183", "IR": "0.139 / 0.0180 / 0.129", "LM": "0 / 0 / 0.0232", "Sys": "0 / 0 / 0"}
{"sequence": "UGCCCGUGGG", "pool": "0.196", "IR": "0.122 / 0.0719 / 0.0369", "LM": "0 / 0 / 0", "Sys": "0 / 0 / 0"}
{"sequence": "UGCCCGUGUG", "pool": "0.209", "IR": "0.139 / 0.0719 / 0.0369", "LM": "0 / 0 / 0.0464", "Sys": "0 / 0 / 0"}
{"sequence": "UGCCCGUUAG", "pool": "0.327", "IR": "0.174 / 0.162 / 0.111", "LM": "0.0276 / 0 / 0", "Sys": "0 / 0 / 0"}
{"sequence": "UGCCCGUUCG", "pool": "0.144", "IR": "0.0869 / 0.0719 / 0.166", "LM": "0.0552 / 0 / 0", "Sys": "0 / 0 / 0"}
{"sequence": "UGCCCGUUGG", "pool": "0.209", "IR": "0.174 / 0.0898 / 0.221", "LM": "0 / 0 / 0.0232", "Sys": "0 / 0 / 0"}
{"sequence": "UGCCCGUUUG", "pool": "0.340", "IR": "0.139 / 0.0539 / 0.0738", "LM": "0.0552 / 0 / 0", "Sys": "0 / 0 / 0"}
{"sequence": "UGCCCUACGG", "pool": "0.0131", "IR": "0 / 0 / 0", "LM": "0 / 0 / 0", "Sys": "0 / 0 / 0"}
{"sequence": "UGCGCGAAAG", "pool": "0.275", "IR": "0.0521 / 0.0719 / 0.129", "LM": "0 / 0 / 0", "Sys": "0 / 0 / 0"}
{"sequence": "UGCGCGAACG", "pool": "0.222", "IR": "0.0174 / 0.126 / 0.0922", "LM": "0 / 0 / 0", "Sys": "0 / 0 / 0"}
{"sequence": "UGCGCGAAGG", "pool": "0.157", "IR": "0.104 / 0.0359 / 0.0369", "LM": "0 / 0 / 0", "Sys": "0 / 0 / 0"}
{"sequence": "UGCGCGAAUG", "pool": "0.301", "IR": "0.0869 / 0.0539 / 0.0738", "LM": "0 / 0 / 0", "Sys": "0 / 0 / 0"}
{"sequence": "UGCGCGACAG", "pool": "0.196", "IR": "0.0869 / 0.0719 / 0.0738", "LM": "0 / 0 / 0", "Sys": "0 / 0 / 0"}
{"sequence": "UGCGCGACCG", "pool": "0.222", "IR": "0.156 / 0.0359 / 0.129", "LM": "0 / 0 / 0", "Sys": "0 / 0 / 0"}
{"sequence": "UGCGCGACGG", "pool": "0.157", "IR": "0.139 / 0.108 / 0.0369", "LM": "0 / 0 / 0.0232", "Sys": "0 / 0 / 0"}
{"sequence": "UGCGCGACUG", "pool": "0.196", "IR": "0.139 / 0.108 / 0.0738", "LM": "0 / 0 / 0.0232", "Sys": "0 / 0 / 0"}
{"sequence": "UGCGCGAGAG", "pool": "0.209", "IR": "0.226 / 0.126 / 0.166", "LM": "0 / 0 / 0.0232", "Sys": "0 / 0 / 0"}

A selection of 2 entries from above:

sequence	pool	IR	LM	Sys
UGCGCGAAAG	0.275	0.0521 / 0.0719 / 0.129	0 / 0 / 0	0 / 0 / 0
UGCCCGGUGG	0.157	0.174 / 0.0359 / 0.111	0 / 0.0252 / 0	0 / 0 / 0

The authors trace changes outside the varied positions to PCR and sequencing errors or to mutation in the plant; presence does not show that a variant is infectious alone. With 36,220-57,551 reads a sample, very low values are single reads.

Source: Wu et al. 2024 (doi:10.1371/journal.ppat.1012142), supplementary data.